Measured values from several laboratories, pooled; numbers as filed in NIAID ChemDB.

Common to all: whole-cell or culture tests; agent: Mycobacterium kansasii

Rows are shuffled and stem from different studies. MIC50, MIC90 and the like: level of inhibition, or share of isolates inhibited. An empty or dashed field is not shown.

structure | strain or isolate | endpoint | setting | read by | value
O=c1oc2ccc(Br)cc2c(=S)n1-c1ccc(Br)cc1 | My 235/80 | MIC | 21 d |  | 4 µM
O=C(Nc1ccc(Cl)cc1)c1ccc(Cl)cc1OS(=O)(=O)c1ccccc1 | 235/80 | MIC | 14 d |  | 16 µM
Oc1ccc(CCN=C=S)cc1 |  | MIC |  | visual reading | 32 µg/mL
O=C(Nc1cccc(Br)c1)c1ccc(Cl)cc1OS(=O)(=O)c1ccccc1 | 235/80 | MIC | 14 d |  | 62.5 µM
O=C(Oc1cc(Cl)ccc1C(=O)Nc1ccc(Br)cc1)c1cnccn1 | 235/80 | MIC | 7 d |  | 4 µM
O=C(NNC(=O)c1ccncc1)Nc1cc(Cl)cc(Cl)c1 | My 6509/96 | MIC100 | 14 d | broth dilution | 125 µM
N/C(=N\N=C\c1ccccc1)SCc1ccc(Br)cc1 | 6509/96 | MIC | 21 d | broth dilution | 62.5 µM
O=C(Oc1cc(Cl)ccc1C(=O)Nc1ccc(Cl)cc1)c1ccccc1 | 235/80 | MIC | 21 d | broth dilution | 4 µM
COC(=O)/C=C/C(=O)c1ccc(C(C)(C)C)cc1 |  | MIC |  |  | 32 µg/mL
CC(C)[C@H](NC(=O)OCc1ccccc1)C(=O)Oc1ccc(Cl)cc1C(=O)Nc1ccc([N+](=O)[O-])cc1 | DSM 44162 | MIC100 |  | broth dilution | 7.6 µM
O=C(Oc1cc(Cl)ccc1C(=O)Nc1ccc(F)cc1)c1ccccc1 | 6509/96 | MIC | 21 d | broth dilution | 8 µM
O=C(Oc1cc(Cl)ccc1C(=O)Nc1ccc(F)cc1)c1cnccn1 | 6509/96 | MIC | 21 d |  | 8 µM
O=C(Nc1cccc(Br)c1)c1cc(Cl)ccc1OS(=O)(=O)c1ccccc1 | 235/80 | MIC | 7 d |  | 16 µM
CO[C@H]1[C@@H](O)[C@H](n2ccc(=O)[nH]c2=O)O[C@@H]1[C@@H](O[C@H]1OC(C(=O)N[C@H]2CCC[C@@H](C)NC2=O)=C[C@H](O)[C@@H]1O)C(N)=O | ATCC 35775 | MIC |  | broth dilution | 4 µg/mL
COc1ccccc1/C=C/C1=NN(C(=N)N)C(c2ccccc2OC)C1 |  | MIC |  | resazurin | 1.78 µM
Cc1ccc2nc(C)c(C(=O)NCc3ccc(C(F)(F)F)cc3)n2c1 | Clinical isolate 0008 | MIC |  | MTT | 0.25 µg/mL
CCOC(=O)c1c(-c2ccccc2)c2ccc(Cl)cc2oc1=O | ATCC 12478 | MIC90 |  | resazurin | >100 µg/mL
O=C(Oc1ccc(Cl)cc1C(=O)Nc1cccc(F)c1)c1cnccn1 | 235/80 | MIC | 14 d |  | 4 µM
O=C(Nc1ccc(Cl)c(Cl)c1)c1cc(Cl)ccc1OS(=O)(=O)c1ccccc1 | 6509/96 | MIC |  |  | 8 µM
CC(C)[C@H](NC(=O)OCc1ccccc1)c1cnc(-c2ccc([N+](=O)[O-])cc2)[nH]1 | My 235/80 | MIC | 14 d |  | 62.5 µM
O=C(Nc1ccc(C(F)(F)F)cc1)c1ccc(Cl)cc1OS(=O)(=O)c1ccccc1 | 6509/96 | MIC | 21 d |  | 4 µM
C[C@@H]1CN(c2c(F)c(N)c3c(=O)c(C(=O)O)cn(C4CC4)c3c2F)C[C@H](C)N1 | ATCC 12478 | MIC |  | broth dilution / visual reading | 0.2 µg/mL
N/C(=N\N=C\c1ccccc1)SCc1ccccc1 | ATCC 12478 | MIC | 21 d | broth dilution | 62.5 µM
COc1cc(/C=C/C2=NN(C(=N)N)C(c3cc(OC)c(OC)c(OC)c3)C2)cc(OC)c1OC |  | MIC |  | resazurin | 21.25 µM
N/C(=N\N=C\c1cc(Cl)ccc1O)SCc1ccc(Cl)cc1 | 6509/96 | MIC | 14 d | broth dilution | 32 µM
S=c1oc2ccc(Br)cc2c(=S)n1-c1cccc(Cl)c1 | My 235/80 | MIC | 14 d |  | 2 µM
O=C(Oc1ccc(Cl)cc1C(=O)Nc1cccc(C(F)(F)F)c1)c1cnccn1 | 6509/96 | MIC | 7 d |  | 4 µM
COc1ccc2oc(=O)n(-c3cccc(Cl)c3)c(=S)c2c1 | My 235/80 | MIC | 21 d |  | 32 µM
COc1ccc(CS/C(N)=N/N=C/c2ccccc2O)cc1 | 6509/96 | MIC | 14 d | broth dilution | 250 µM
O=C(NNC(=O)c1ccncc1)Nc1ccc(F)c(Cl)c1 | My 6509/96 | MIC100 | 7 d | broth dilution | >125 µM
O=C(N[C@@H](Cc1ccccc1)c1cnc(-c2ccccc2)[nH]1)OCc1ccccc1 | My 235/80 | MIC | 14 d |  | >500 µM
O=C(Nc1ccc(Br)cc1)c1cc(Cl)ccc1OS(=O)(=O)c1ccccc1 | 235/80 | MIC | 7 d |  | 8 µM
O=C(Nc1cncc(Cl)n1)c1ccccc1O |  | MIC |  | resazurin | >100 µg/mL
O=C(NNC(=O)c1ccncc1)Nc1ccc(F)c(C(F)(F)F)c1 | My 6509/96 | MIC100 | 7 d | broth dilution | 62.5 µM
CCC(C)c1ccc(-n2c(=S)oc3cc(Cl)ccc3c2=S)cc1 | 6509/96 | MIC | 21 d | broth dilution | 2 µM
C[C@@H](NC(=O)OCc1ccccc1)c1cnc(-c2ccccc2)[nH]1 | My 235/80 | MIC | 14 d |  | 250 µM
O=C(Nc1ccc(Cl)c(Cl)c1)c1cc(Cl)ccc1O | 6509/96 | MIC | 14 d | broth dilution | 8 µM
O=C(Oc1cc(Cl)ccc1C(=O)Nc1cccc(F)c1)c1cnccn1 | 6509/96 | MIC | 7 d |  | 4 µM
O=C(Oc1cc(Cl)ccc1C(=O)Nc1cccc(Cl)c1)c1ccccc1 | 235/80 | MIC | 21 d | broth dilution | 4 µM
Cc1ccc2c(=S)n(-c3ccc(C(C)C)cc3)c(=S)oc2c1 | 6509/96 | MIC | 14 d | broth dilution | 2 µM
Fc1ccc2oc(=S)n(-c3ccc(Cl)cc3)c(=S)c2c1 | 6509/96 | MIC | 14 d |  | 4 µM
O=C(Oc1ccc(Cl)cc1C(=O)Nc1ccc(Cl)cc1)c1cnccn1 | 6509/96 | MIC | 21 d |  | 4 µM
N/C(=N\N=C\c1ccccc1)SCc1ccc(C(F)(F)F)cc1 | ATCC 12478 | MIC | 14 d | broth dilution | 62.5 µM
Cc1ccn2c(C(=O)NCc3ccc4c(c3)CCO4)c(C)nc2c1 | Clinical isolate 379 | MIC |  | MTT | 1 µg/mL
O=C(Oc1cc(Cl)ccc1C(=O)Nc1ccc(Br)cc1)c1ccccc1 | 235/80 | MIC | 14 d | broth dilution | 4 µM
COc1ncccc1Nc1cc2nc3ccccc3n(-c3ccc(OC(F)(F)F)cc3)c-2cc1=NC1CCC(OC)CC1 |  | MIC90 |  | fluorescence | 0.183 µg/mL
O=C(Oc1ccc(Cl)cc1C(=O)Nc1ccc(Cl)c(Cl)c1)c1cnccn1 | 6509/96 | MIC | 7 d |  | 1 µM
CC[C@@H](C)[C@H](NC(=O)OCc1ccccc1)c1cnc(-c2ccccc2)[nH]1 | My 235/80 | MIC | 14 d |  | 62.5 µM
COc1ccc(NC(=O)c2cc(Cl)ccc2OC(=O)[C@@H](NC(=O)OCc2ccccc2)C(C)C)cc1 | DSM 44162 | MIC100 |  | broth dilution | 62.62 µM
O=C(OCc1ccccc1)N1CCC[C@H]1c1cnc(-c2ccccc2)[nH]1 | My 235/80 | MIC | 7 d |  | 32 µM
O=C(Oc1cc(Cl)ccc1C(=O)Nc1cccc(Cl)c1)c1cnccn1 | 6509/96 | MIC | 21 d |  | 8 µM
COc1ccc2oc(=S)n(-c3ccc(Br)cc3)c(=S)c2c1 | 6509/96 | MIC | 14 d |  | 32 µM
C[C@@H](NC(=O)OCc1ccccc1)c1cnc(-c2ccc([N+](=O)[O-])cc2)[nH]1 | My 6509/96 | MIC | 21 d |  | >125 µM

The last 3 rows once more:

O=C(Oc1cc(Cl)ccc1C(=O)Nc1cccc(Cl)c1)c1cnccn1 ; strain or isolate: 6509/96 ; endpoint: MIC ; setting: 21 d ; value: 8 µM
COc1ccc2oc(=S)n(-c3ccc(Br)cc3)c(=S)c2c1 ; strain or isolate: 6509/96 ; endpoint: MIC ; setting: 14 d ; value: 32 µM
C[C@@H](NC(=O)OCc1ccccc1)c1cnc(-c2ccc([N+](=O)[O-])cc2)[nH]1 ; strain or isolate: My 6509/96 ; endpoint: MIC ; setting: 21 d ; value: >125 µM